This data set concerns C[S+](CC[C@H](N)C(=O)O)C[C@H]1O[C@@H](n2cnc3c(N)ncnc32)[C@H](O)[C@@H]1O. Description: purified protein. As to conditions: 100 mM Tris-HCl, pH 8.0, 30 °C.

For orientation: Km means the substrate concentration at which the rate is half of its maximum. In general, kcat refers to the maximal rate divided by the concentration of active sites.

As for “AzeJ (Pseudomonas aeruginosa PAO1; F134Y)”, the Km turned out to be 520 ± 250 µM and the kcat worked out at 0.183 ± 0.0267 s⁻¹.

For the substance “AzeJ (Pseudomonas aeruginosa PAO1; Y175F)”, the Km turned out to be 500 ± 350 µM and the kcat stood at 0.0167 ± 0.0033 s⁻¹.

(Values after paper PMC11794875, “Molecular basis for azetidine-2-carboxylic acid biosynthesis” (Nature Communications, 2025).)
